Consider one compound from article PMC9139167, “Rational Discovery of Antiviral Whey Protein-Derived Small Peptides Targeting the SARS-CoV-2 Main Protease” (Biomedicines, 2022).

Structures are written as SMILES.

The experiment concerns the target SARS-CoV-2 3CL Protease (Severe acute respiratory syndrome coronavirus 2, UniProt P0DTD1). As to the kind of experiment: biochemical.
Setting [1] is: read-out: Relative Inhibition (RI %).

For orientation: IC50 means the concentration needed to halve the response being measured. Lower therefore signals greater potency. Usually inhibition stands for the share of the control response that was lost under treatment.

On to `CC[C@H](C)[C@H](N)C(=O)N1CCC[C@H]1C(=O)N[C@@H](C)C(=O)N[C@H](C(=O)N[C@@H](Cc1ccccc1)C(=O)O)C(C)C` [IPAVF], for which the IC50 is 1210 nM. Under setting [1], the inhibition at 0.042 µM stood at 27 ± 2.19%, the inhibition at 0.42 µM is 42.9 ± 3.54%, the inhibition at 4.2 µM was 50.2 ± 3.39% and the inhibition at 42 µM worked out at 52 ± 4.34%. Further, under setting [1], the inhibition at 126 µM came to 57.28 ± 0.38%, the inhibition at 210 µM was found to be 70.4 ± 0.76% and the inhibition at 420 µM was 65 ± 6.28%.
